Data source: PubChem BioAssay AID1259414 (Drosophila RNAi Screening Center, 2018)
Purpose: 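Genome-wide screen for host control of endosymbiont load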 (primary screen). System: Drosophila JW18 cells infected with Wolbachia. Knock-down reagent: long dsRNA against Drosophila genes, 0.25 µg dsRNA per well of a 384-well plate. Timing: 5 days. Challenge: cells persistently infected with Wolbachia before knock-down; no added drug. Detection: 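Automated imaging of bacterial rRNA staining divided by host cell count, reported as plate-normalised robust z-score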. Reading the numbers: Wolbachia per cell robust z: higher = more Wolbachia per host cell than the plate typical. Rule for the call: 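Active if absolute robust z reaches 1.5 in two or more of three replicates, leaving out multi- or no-target dsRNAs, genes unexpressed in JW18 and A1 wells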.
In all, the deposit lists about 24,000 reagents; shown is an unselected part of those that have a named target and a result. Of all reagents, about 1,210 (5%) got an active call. 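Inactive calls also include excluded dsRNAs with several or no targets, genes unexpressed in JW18, and well A1, regardless of score.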 Names joined by + are all predicted targets of the reagent. No sequences are given here.

gene knocked down	dsRNA	Wolbachia per cell robust z, rep 1	Wolbachia per cell robust z, rep 2	Wolbachia per cell robust z, rep 3	Call
Rab10	DRSC20572	0.671	0.541	0.545	inactive
Rab10	DRSC25270	-0.669	2.2	1.98	active
fzr2	DRSC04280	-0.403	-0.222	-1.11	inactive
CG16789	DRSC15155	0.413	0.21	-0.477	inactive
PIG-Wb	DRSC08526	-0.22	-1.13	-3.75	inactive
CG31244	DRSC21589	0.124	-0.223	0.0702	inactive
CG17362	DRSC10267	-0.517	-0.573	-1.37	inactive
CG17819	DRSC15279	-0.106	-1.43	1.16	inactive
Ccdc85	DRSC23173	0.00639	-6.86	-0.181	inactive
CG17068	DRSC20545	1.4	-0.223	-3.03	inactive
CG6830	DRSC16124	0.944	1.35	-0.294	inactive
CG6830	DRSC27278	-0.754	0.335	0.666	inactive
CG10738	DRSC09792	0.507	-0.0566	-2.89	inactive
CG10738	DRSC24408	-1.19	-0.793	-0.139	inactive
stx	DRSC23075	-1.27	-5.62	-5.82	active
stx	DRSC29601	0.122	-5.44	0.904	inactive
L (retired record) + PRAS40	DRSC05966	-2.28	0.997	-2.46	inactive
L (retired record) + PRAS40	DRSC25281	0.526	-0.403	-0.112	inactive
Polr2H	DRSC11642	1.17	3.05	1.22	inactive
rut	DRSC22976	0.418	-0.259	0.0699	inactive
rut	DRSC39112	-0.8	-0.567	-0.501	inactive
Dora	DRSC19614	0.0765	0.671	1.02	inactive
Dora	DRSC19781	0.505	0.277	0.516	inactive
Dora	DRSC20034	-0.426	-0.542	-1.16	inactive
Dora	DRSC20035	-0.127	-0.343	-0.257	inactive
Dora	DRSC27055	-1.03	-0.232	2.02	inactive
Dora	DRSC28428	-0.421	0.534	0.978	inactive
spn-F	DRSC14475	2.15	0.195	1.21	inactive
spn-F	DRSC29328	0.259	0.0909	-0.141	inactive
Irbp18	DRSC10612	-0.773	0.103	-1.39	inactive
Golgin97	DRSC06895	0.305	0.0325	0.172	inactive
Six4	DRSC11881	0.967	0.92	0.711	inactive
Six4	DRSC29889	-0.0283	0.488	0.736	inactive
CG13457	DRSC10004	-0.794	-0.81	-1.21	inactive
CG13457	DRSC29775	-4.18	-2.11	0.194	inactive
mew	DRSC18971	-0.813	-0.127	-1.97	inactive
mew	DRSC20352	-1	1.22	0.299	inactive
CG10561	DRSC02068	0.787	1.39	-0.15	inactive
pirk	DRSC04269	1.59	0.522	0.433	inactive
Adgf-A	DRSC10566	-0.948	-2.45	-2.12	active
Adgf-A	DRSC24552	-0.123	0.932	-0.000399	inactive
ND-18	DRSC19441	1.42	0.819	1.39	inactive
CG9609	DRSC20199	1.16	0.307	-0.445	inactive
CG9609	DRSC26952	0.931	0.00568	0.384	inactive
CG9609	DRSC41262	-1.24	-1.7	-2.13	active
CG8661	DRSC20115	-0.316	0.864	-1.07	inactive
CG8661	DRSC29778	0.252	1.2	-5.25	inactive
Cyp6g1	DRSC07386	0.548	0.498	0.663	inactive
Cyp6g1	DRSC41539	-0.398	-0.179	-1.38	inactive
CR41243	DRSC37741	-0.976	-2.83	-0.531	inactive
CG11085	DRSC19374	0.754	1.4	0.589	inactive
CG11085	DRSC22832	-0.365	-4.82	0.264	inactive
CG11085	DRSC25203	-0.877	1.14	-0.159	inactive
Caf1-55	DRSC16596	3.51	1.86	3.03	active
Caf1-55	DRSC40758	1.06	1.62	2.07	active
CG31643	DRSC00906	-0.281	-0.85	-0.631	inactive
CG31643	DRSC41452	0.238	-1.9	0.636	inactive
CG13071	DRSC09954	-0.928	0.455	0.811	inactive
AQP	DRSC06122	0.223	0.599	-2.13	inactive
CG13856	DRSC14706	0.653	0.326	1.01	inactive
CG9288 + CG42375	DRSC16468	0.114	0.85	-0.555	inactive
CG32645	DRSC19683	-3.82	-3.16	0.254	inactive
CG32645	DRSC19889	0.314	-0.571	-0.306	inactive
Syngr	DRSC06003	-1.58	0.143	-0.63	inactive
CG6073	DRSC15962	-0.874	-0.35	-1.15	inactive
CG6073	DRSC22742	0.332	0.872	-0.474	inactive
CG6073	DRSC29018	0.541	1.41	1.76	inactive
CG15107	DRSC23406	1.72	0.681	1.4	inactive
CG4661	DRSC19910	0.518	0.153	0.427	inactive
CG13008	DRSC19527	0.626	0.231	0.787	inactive
CG13008	DRSC19528	-1.16	0.195	0.493	inactive
CG12869	DRSC06208	0.435	0.0505	1.07	inactive
FASN1	DRSC00268	2.38	1.09	5.93	active
FASN1	DRSC26498	1.55	2.58	2.14	active
CadN2	DRSC03062	-1.38	0.209	0.0774	inactive
CadN2	DRSC03063	-0.363	-0.671	-1.63	inactive
CadN2	DRSC03064	-0.196	-0.329	0.0379	inactive
ImpE1	DRSC11195	-3.42	0.315	-0.282	inactive
ImpE1	DRSC11196	-0.275	-0.361	-1.35	inactive
ImpE1	DRSC24590	-2.36	-2.25	-1.64	inactive
Yeti	DRSC21138	0.258	-0.726	0.164	inactive
CG42450	DRSC20022	-4.04	-1.36	-1.49	inactive
CG42450	DRSC22751	-3.09	0.452	-1.06	inactive
Cyp6v1	DRSC20565	0.755	0.457	-0.841	inactive
Cyp6v1	DRSC29247	-0.503	-0.682	-0.818	inactive
CG33704	DRSC38898	-1.02	-0.128	-0.638	inactive
Tom	DRSC11306	0.498	-0.292	0.875	inactive
Tom	DRSC27660	1.23	-1.33	-0.274	inactive
Tom	DRSC38982	-0.26	-1.45	-1.31	inactive

8 entries from above in another layout:
gene knocked down | dsRNA | Wolbachia per cell robust z, rep 1 | Wolbachia per cell robust z, rep 2 | Wolbachia per cell robust z, rep 3 | Call
Six4 | DRSC11881 | 0.967 | 0.92 | 0.711 | inactive
Six4 | DRSC29889 | -0.0283 | 0.488 | 0.736 | inactive
CG13457 | DRSC10004 | -0.794 | -0.81 | -1.21 | inactive
CG13457 | DRSC29775 | -4.18 | -2.11 | 0.194 | inactive
mew | DRSC18971 | -0.813 | -0.127 | -1.97 | inactive
mew | DRSC20352 | -1 | 1.22 | 0.299 | inactive
CG10561 | DRSC02068 | 0.787 | 1.39 | -0.15 | inactive
pirk | DRSC04269 | 1.59 | 0.522 | 0.433 | inactive
